Pooled drug test results. Numbers come from NIAID ChemDB, via PubChem.

Shared fields: growth or infection tests; species: HIV-1; method: RT activity; endpoint: EC50

ECn is the concentration giving n% inhibition of infection, replication or growth.

O=C(CNC(=O)COc1ccccc1)NCc1ccc(C(=O)N2CCCCC2)cc1 ; cell line: PBMC ; strain or isolate: 92BR025 ; result: 16.3 µM
CN1CCN(Cc2ccc(-c3cccc(-c4ccc(CN5CCN(C)CC5)cc4)n3)cc2)CC1 ; cell line: PBMC ; strain or isolate: LAV-1 ; result: 22 µM
Nc1ccn([C@@H]2O[C@H](CO)C=C2F)c(=O)n1 ; mutations: RT-M184V ; cell line: PBMC ; result: <1.8 µM
CN(C)CCNCc1ccc(-c2cccc(-c3ccc(CNCCN(C)C)cc3)n2)cc1 ; cell line: PBMC ; strain or isolate: LAV ; result: 3.7 µM
CN1CCN(c2nc(-c3cccs3)cc(-c3cccs3)n2)CC1 ; cell line: PBMC ; strain or isolate: LAV-1 ; result: 21 µM
CCCc1cc(=O)oc2c3c(c4c(c12)OC(C)(C)CC4)O[C@@H](C)[C@H](C)[C@@H]3O ; cell line: PBMC ; strain or isolate: CLADE C ; result: 0.06 µM
NC(=O)c1cn([C@@H]2CS[C@H](CO)O2)cn1 ; cell line: PBMC ; strain or isolate: LAV ; result: >100 µM
CC(C)(C)c1ccccc1Sc1c(O)cc(-c2ccc(OCc3cccnc3)cc2)oc1=O ; cell line: CEM ; result: >100 µM
c1ccc(CN2CCc3cncn3CC2)cc1 ; cell line: CEM + CEM-SS ; strain or isolate: LAI ; result: 165 µM
COc1c2ccoc2c(OCC=C(C)C)c2oc(=O)ccc12 ; cell line: PBMC ; strain or isolate: LAV ; result: 14.2 µM
O=c1[nH]c(=O)n([C@H]2C[C@H](O)[C@@H](CO)O2)cc1CO ; cell line: PBMC ; result: 2.5 µg/mL
Nc1nc2c(ncn2[C@@H]2C=C[C@H](CO)C2)c(=O)[nH]1 ; cell line: H9 ; strain or isolate: IIIB ; result: >60 µM
Nc1ncnc2c1ncn2[C@@H]1O[C@@H](CO)[C@H](O)C1(F)F ; cell line: PBMC ; strain or isolate: LAV ; result: >100 µM
CC(C)C(=O)Cc1c(OCC(O)C(C)(C)O)ccc2ccc(=O)oc12 ; cell line: PBMC ; strain or isolate: LAV ; result: >100 µM
Nc1nc2c(ncn2[C@H]2C[C@H](O)[C@@H](CO)O2)c(=O)o1 ; cell line: U-937/HIV-1(IIIB) + U-937 ; strain or isolate: IIIB ; result: >100 µg/mL
CC(C)(C)[Si](C)(C)O[C@H]1[C@H](CO)O[C@@H](n2ccc(N)nc2=O)C1(F)F ; cell line: PBMC ; strain or isolate: LAV ; result: >100 µM
CN(C)CCSc1cccc(-c2cc(-c3cccc(SCCN(C)C)c3)ncn2)c1 ; cell line: PBMC ; strain or isolate: LAV ; result: 1.6 µM
Nc1ncnc2c1ncn2[C@@H]1O[C@H](COC2(c3ccccc3)c3ccccc3Oc3ccccc32)[C@@H](OC2(c3ccccc3)c3ccccc3Oc3ccccc32)[C@H]1OC1CCCCO1 ; cell line: H9 ; strain or isolate: RF ; result: 0.093 µM
O=c1[nH]c(=O)n([C@H]2O[C@@H](CO)[C@H](O)C2(F)F)cc1Br ; cell line: PBMC ; strain or isolate: LAI ; result: >100 µM
CC(C)(C)NC(=O)[C@@H]1CCCN1C(=O)[C@@H](O)[C@H](Cc1ccccc1)NC(=O)[C@H](CC(N)=O)NC(=O)OCc1ccccc1 ; cell line: MOLT-4 ; strain or isolate: C-2 ; result: ~1 µM
CN(C)CCSc1ccc(-c2ccc(-c3ccc(SCCN(C)C)cc3)nn2)cc1 ; cell line: PBMC ; strain or isolate: LAV-1 ; result: 5.8 µM
Nc1nc2c(ncn2[C@@H]2O[C@H](COP(=O)(O)O)[C@@H](O)[C@H]2O)c(=O)o1 ; cell line: U-937/HIV-1(IIIB) + U-937 ; strain or isolate: IIIB ; result: 21 µg/mL
C[C@@H]1CCO[C@H]2Cn3cc(C(=O)NCc4ccc(F)cc4F)c(=O)c(O)c3C(=O)N12 ; mutations: Y143R ; cell line: CBMC ; strain or isolate: NL4-3 ; result: 0.0013 µM
CC1=CC[C@]2(C)C[C@H](O)[C@@]3(C)[C@H](C(C(C)C)=C[C@@H]3O)[C@H]2CC1 ; cell line: PBMC ; strain or isolate: LAV ; result: >100 µM
O=c1oc(-c2ccc(OCc3ccccn3)cc2)cc(O)c1SCCc1ccccc1 ; cell line: H9 ; result: 2.3 µM
CC(C)=CCC[C@]1(C)C=Cc2c(ccc3c2C(=O)C(O)=C(C2=C(C4=C(O)C(=O)c5c(ccc6c5C=C[C@@](C)(CCC=C(C)C)O6)C4=O)C(=O)c4c(ccc5c4C=C[C@@](C)(CCC=C(C)C)O5)C2=O)C3=O)O1 ; cell line: MT-4 ; strain or isolate: RF ; result: 0.04 µM
Cc1cnc(SCCN2CCN(C)CC2)nc1-c1cc2ccccc2s1 ; cell line: PBMC ; strain or isolate: LAV-1 ; result: 6.5 µM
Nc1nc(=O)n([C@H]2O[C@@H](CO)[C@H](O)C2(F)F)cc1Cl ; cell line: PBMC ; strain or isolate: LAI ; result: >100 µM
OCCN(CCO)c1nc(-c2cccs2)cc(-c2cc3ccccc3s2)n1 ; cell line: PBMC ; strain or isolate: LAV-1 ; result: 60 µM
CC1=CC[C@]2(C)CC[C@@]3(C)[C@H](C(C(C)C)=C[C@@H]3O)[C@H]2CC1 ; cell line: PBMC ; strain or isolate: LAV ; result: >100 µM
COc1ccnc2[nH]cc(C(=O)C(=O)N3CCN(C(=O)c4ccccc4)C[C@H]3C)c12 ; cell line: MT-2 ; strain or isolate: NL4-3 ; result: 0.067 µM
CC(C)=CCN1CCc2cncn2CC1 ; cell line: CEM + CEM-SS ; strain or isolate: LAI ; result: >100 µM
CCOC(=O)c1cn(C)c2cc(N3CCN(c4ccccn4)CC3)c(N)cc2c1=O ; cell line: Jurkat cells ; strain or isolate: HXBc2 ; result: >1 µM
O=P(O)(O)OP(=O)(O)OP(=O)(O)OP(=O)(O)O ; cell line: H9 ; strain or isolate: IIIB ; result: >100 µg/mL
CN(C)CCNc1nc(-c2cccs2)cc(-c2cccs2)n1 ; cell line: PBMC ; strain or isolate: LAV-1 ; result: 0.5 µM
COc1ccc2ccc(=O)oc2c1CC(=O)C(C)C ; cell line: PBMC ; strain or isolate: LAV ; result: >100 µM
CN1CCN(CCSc2nccc(-c3ccc(-c4cccs4)s3)n2)CC1 ; cell line: PBMC ; strain or isolate: LAV ; result: 12.9 µM
CN1N=C(N)c2cn([C@@H]3O[C@H](COP(=O)(O)O)[C@@H](O)[C@H]3O)c3ncnc1c23 ; cell line: H9 ; strain or isolate: IIIB ; result: 0.05 µM
C=C(C)C(O)Cc1c(OC)cc(OC)c2ccc(=O)oc12 ; cell line: PBMC ; strain or isolate: LAV ; result: >100 µM
O=C(O)[C@H]1O[C@@H](Oc2cc(O)cc(/C=C/c3ccc(O)cc3)c2)[C@H](O)[C@@H](O)[C@@H]1O ; cell line: PBMC ; strain or isolate: IIIB ; result: >300 µM
COc1c(C)c2c(c(O)c1C/C=C(\C)CCC(=O)O)C(=O)OC2 ; cell line: H9 ; strain or isolate: LAV-1 ; result: ~0.005 µM
Nc1nc(=O)n([C@H]2O[C@@H](CO)C=C2F)cc1F ; cell line: PBMC ; strain or isolate: LAV ; result: 0.46 µM
OC[C@H]1O[C@@H]2O[C@H]3[C@H](O)[C@@H](O)[C@@H](O[C@H]4[C@H](O)[C@@H](O)[C@@H](O[C@H]5[C@H](O)[C@@H](O)[C@@H](O[C@H]6[C@H](O)[C@@H](O)[C@@H](O[C@H]7[C@H](O)[C@@H](O)[C@@H](O[C@H]8[C@H](O)[C@@H](O)[C@@H](O[C@H]1[C@H](O)[C@H]2O)O[C@@H]8CO)O[C@@H]7CO)O[C@@H]6CO)O[C@@H]5CO)O[C@@H]4CO)O[C@@H]3CO ; cell line: SupT1 + Sup-T1 ; strain or isolate: IIIB ; result: >630 µM
CN(C)CCNc1nc(-c2cccs2)cc(-c2cccs2)n1 ; cell line: PBMC ; strain or isolate: LAV ; result: 0.5 µM
Nc1nc2c(ncn2[C@@H]2C=C(F)[C@H](CO)C2)c(=O)[nH]1 ; cell line: PBMC ; strain or isolate: LAI ; result: 20.7 µM
Cc1cn([C@H]2C=C[C@@H](CO)O2)c(=O)[nH]c1=O ; cell line: PBMC ; strain or isolate: IIIB ; result: 0.04 µM
Nc1nc(=O)n([C@@H]2O[C@@H](CO)[C@H](O)C2(F)F)cc1Cl ; cell line: PBMC ; strain or isolate: LAI ; result: >100 µM
Cc1cn([C@H]2C[C@H](N=[N+]=[N-])[C@@H](CO)O2)c(=O)[nH]c1=O ; cell line: U-937/HIV-1(IIIB) + U-937 ; strain or isolate: IIIB ; result: >30 µg/mL
OCCN(CCO)CCOc1nc(-c2cccs2)cc(-c2cc3ccccc3s2)n1 ; cell line: PBMC ; strain or isolate: LAV ; result: 1.4 µM
COc1c2ccoc2c(OCC(O)C(C)(C)O)c2oc(=O)ccc12 ; cell line: PBMC ; strain or isolate: LAV ; result: >100 µM
Nc1ncnc2c1ncn2[C@H]1O[C@@H](CO)[C@H](O)C1(F)F ; cell line: PBMC ; strain or isolate: LAV ; result: 3.4 µM
Cc1cn([C@H]2C[C@H](N=[N+]=[N-])[C@@H](CO)O2)c(=O)[nH]c1=O ; cell line: PBMC ; strain or isolate: JV1083 (subtype G) ; result: 0.00067 µM
CN1CCN(CCSc2nccc(-c3cccs3)n2)CC1 ; cell line: PBMC ; strain or isolate: LAV ; result: 16.9 µM
COc1cc(-c2ccc(N=Nc3ccc4c(S(=O)(=O)O)cc(S(=O)(=O)O)c(N)c4c3O)c(OC)c2)ccc1N=Nc1ccc2c(S(=O)(=O)O)cc(S(=O)(=O)O)c(N)c2c1O ; cell line: CEM + CEM-SS ; strain or isolate: McK ; result: 0.6 µM
Cc1cn(CCO[C@H]2C=C[C@@H](CO)O2)c(=O)[nH]c1=O ; cell line: CEM + CEM-SS ; strain or isolate: LAI ; result: 27 µg/mL
Cc1cnc(SCCN2CCN(C)CC2)nc1-c1cc2ccccc2s1 ; cell line: PBMC ; strain or isolate: LAV ; result: 6.5 µM
CC(C)=CCOc1ccc2ccc(=O)oc2c1CC(=O)C(C)C ; cell line: PBMC ; strain or isolate: LAV ; result: 23.2 µM

Rows are shuffled and stem from different studies.